Laboratory results published in paper PMC10575921 (2023).
Where “and” joins values, the source holds several entries; their conditions need not be identical. Identical values can stand only once.

Assays:
[1] = system: human primary hepatocytes; conditions: primary hepatocyte cytotoxicity; 0.206 μM
[2] = system: bone marrow of Sprague Dawley (SD) rats; conditions: male, rat

Row | Compound | % of vehicle control [1] | in vivo micronucleus test result [2]
1 | CC/C(=C(\c1ccccc1)c1ccc(OCCN(C)C)cc1)c1ccccc1 [Tamoxifen] | 100.25% and 99.17% | –
2 | CC(C)(C)[C@H](NC(=O)C(F)(F)F)C(=O)N1CC2(C[C@H]1C(=O)N[C@H](C#N)C[C@@H]1CCNC1=O)SCCS2 [compound 9, simnotrelvir] | – | negative
